Pooled drug test results. Numbers come from NIAID ChemDB, via PubChem.

Common to all: target-level tests; agent: HIV-1; protein: Reverse transcriptase; method: nucleotide incorporation / radiometric; measure: fold resistance

Two numbers with a dash give a range or band.

structure	strain or isolate	mutations	value
NS(=O)(=O)c1ccc(NC(=O)CSc2nnc(Br)n2-c2ccc(C3CC3)cc2)c(Cl)c1	-	RT-Y188L	>2
CCN1c2ncc(CCOc3ccc(C(=O)Nc4cccn(CC(=O)O)c4=O)cc3C)cc2C(=O)N(C)c2cccnc21	IIIB	RT-K103N Y181C	>1
CCN1c2ncc(CCOc3cccc4c3CC(=O)N4)cc2C(=O)N(C)c2cccnc21	IIIB	RT-K103N Y181C	>1
O=C(O)CNC(=O)c1ccc(NC(=O)CSc2nnc(Br)n2-c2ccc(C3CC3)c3ccccc23)c(Cl)c1	-	RT-Y188L	>1
CCN1c2ncc(CCOc3ccc(/C=C(\C)C(=O)O)c4ccccc34)cc2C(=O)Nc2c(C)cc(Cl)nc21	-	RT-V106A	1–10
Cc1occc1C(=S)Nc1ccc(Cl)c(C(=O)OCC2CC2)c1	-	RT-L100I	>8.33
COc1ccc2cccc(-n3c(Br)nnc3SCC(=O)Nc3ccc(C(=O)O)cc3Cl)c2c1	-	RT-Y188L	>2
CCN1c2ncc(CCOc3ccc(-c4ccc(C(=O)O)s4)cc3)cc2C(=O)N(C)c2cccnc21	IIIB	RT-K103N Y181C	>1
O=C(CSc1nnc(Br)n1-c1ccc(C2CC2)c2ccccc12)Nc1ccc(C(=O)O)cc1Cl	-	RT-Y188L	>1
Cc1cc(C2CC2)cc(Cl)c1-n1c(Br)nnc1SCC(=O)Nc1ccc(C(=O)O)cc1Cl	-	RT-Y188L	>2
CCc1ccc(-n2c(Br)nnc2SCC(=O)Nc2ccc(C(=O)NCC3CCCO3)cc2Cl)c2ccccc12	-	RT-Y181C	>1
CCN1c2ncc(CCOc3ccc(-c4c[n+]([O-])ccc4C)cc3C)cc2C(=O)N(C)c2cccnc21	IIIB	RT-K103N Y181C	1
CCN1c2ncc(CCOc3ccc4c(c3)CNC(=O)N4)cc2C(=O)N(C)c2cccnc21	IIIB	RT-K103N Y181C	>1
Cc1ccc(-n2c(SCC(=O)Nc3ccc(C(=O)O)cc3Cl)nnc2C(F)F)c2c1CCCC2	-	RT-Y188L	>2
Cc1cc(C)cc(S(=O)(=O)c2c(C(=O)NCCO)[nH]c3ccc(Cl)cc23)c1	-	RT-V179D	>8000
CCN1c2ncc(CCOc3ccc(CC(=O)O)c4c3CCCC4)cc2C(=O)N(C)c2cccnc21	-	RT-V106A	>10
Cc1ccc2c(C)cc(C)c(-n3c(SCC(=O)Nc4ccc(S(N)(=O)=O)cc4C)nnc3C(F)F)c2n1	-	RT-Y181C	>2
CCN1c2ncc(CCOc3ccc(C(=O)NCC(CC)(CC)C(=O)O)cc3C)cc2C(=O)N(C)c2cccnc21	IIIB	RT-K103N Y181C	1
Cc1cc(S(N)(=O)=O)ccc1NC(=O)CSc1nnc(C(F)F)n1-c1ccc(C)c2c1CCCC2	-	RT-Y188L	>2
CCN1c2ncc(CCOc3cccc4c3n(C)c(=O)n4C)cc2C(=O)N(C)c2cccnc21	IIIB	RT-K103N Y181C	>1
Cc1cc(S(N)(=O)=O)ccc1NC(=O)COc1ccccc1C(=O)c1cc(Cl)cc(C#N)c1	NNRTI-resistant	RT-Y188L	8.3
CCN1c2ncc(CCOc3ccc(CC(=O)O)c4c3CCCC4)cc2C(=O)N(C)c2ccc(F)nc21	-	RT-K103N Y181C	1–10
Cc1occc1C(=S)Nc1ccc(Cl)c(/C=N/OC(C)(C)C)c1	-	RT-V106A	3
CCN1c2ncc(CCOc3ccc(C(=O)NNCC(=O)O)cc3C)cc2C(=O)N(C)c2cccnc21	IIIB	RT-K103N Y181C	>2
O=C(CSc1nnc(Br)n1-c1ccc(C2CC2)c2ccccc12)Nc1ccc(C(=O)N[C@@H](Cc2ccc(O)cc2)C(=O)O)cc1Cl	-	RT-Y188L	>1
CCCc1cc(=O)oc2c3c(c4c(c12)OC(C)(C)C=C4)O[C@H](C)C[C@@H]3O	-	RT-Y181C	0.2
NC(=O)c1[nH]c2ccc(Cl)cc2c1S(=O)(=O)c1ccccc1	-	RT-Y181I	140
Cc1cc(S(N)(=O)=O)ccc1NC(=O)CSc1nnc(Br)n1-c1ccc(C2CC2)c2ccccc12	-	RT-Y188L	>2
C=CCO/N=C/c1cc(NC(=S)c2ccoc2C)ccc1Cl	-	RT-L100I	>8.33
CCN1c2ncc(CCOc3cccc4c3ccc[n+]4[O-])cc2C(=O)Nc2c(C)cc(Cl)nc21	RT -K103N	RT-K103N	2.2
CCN1c2ncc(CCOc3cccc4c3CN(C)C(=O)N4C)cc2C(=O)Nc2c(C)ccnc21	IIIB	RT-K103N Y181C	>2
CC[C@H](C)[C@H](NC(=O)c1ccc(NC(=O)CSc2nnc(Br)n2-c2ccc(C3CC3)c3ccccc23)c(Cl)c1)C(=O)O	-	RT-Y181C	>1
CCN1c2ncc(CCOc3ccc4cc(CC(=O)O)ccc4c3C)cc2C(=O)N(C)c2cccnc21	-	RT-K103N Y181C	1–10
CCN1c2ncc(CCOc3ccc(C(=O)Nc4ccc[n+]([O-])c4)cc3C)cc2C(=O)N(C)c2cccnc21	IIIB	RT-K103N Y181C	1
CC(C)[C@H](NC(=O)c1ccc(NC(=O)CSc2nnc(Br)n2-c2ccc(C3CC3)c3ccccc23)c(Cl)c1)C(=O)O	-	RT-Y181C	<1
Cc1cc(S(N)(=O)=O)ccc1NC(=O)CSc1nnc(CF)n1-c1c(C)cc(C)c2ccccc12	-	RT-Y181C	>2
Cc1cc(C)cc(S(=O)(=O)c2c(C(N)=O)[nH]c3ccc(Cl)cc23)c1	-	RT-K103N	1
CCc1ccc(-n2c(Br)nnc2SCC(=O)Nc2ccc(C(=O)NCC(=O)O)cc2Cl)c2ccccc12	-	RT-Y188L	>2
CCc1ccc(-n2c(SCC(=O)Nc3ccc(C(=O)O)cc3Cl)nnc2C(F)(F)F)c2ccccc12	-	RT-Y188L	>2
CCc1ccc(-n2c(CF)nnc2SCC(=O)Nc2ccc(S(=O)(=O)NC)cc2Cl)c2ccccc12	-	RT-Y188L	>1
CCN1c2ncc(CCOc3cccc(-c4ccccc4)c3)cc2C(=O)N(C)c2cccnc21	IIIB	RT-K103N Y181C	>2
NS(=O)(=O)c1ccc(NC(=O)CSc2nnc(Br)n2-c2ccc(C3CC3)c3ccccc23)c(Cl)c1	-	RT-Y188L	>1
O=C(CSc1nnc(Br)n1-c1ccc(C2CC2)c2ccccc12)Nc1ccc(C(=O)O)cc1Cl	-	RT-Y188L	>2
CCN1c2ncc(CCOc3ccc(C(=O)O)c4ccccc34)cc2C(=O)Nc2c(C)cc(F)nc21	-	RT-K103N Y181C	1–10
NS(=O)(=O)c1ccc(NC(=O)CSc2nnc(Br)n2-c2ccc3c4c(cccc24)CC3)c(Cl)c1	-	RT-Y188L	>1

A second listing of 7 rows from above:

structure | strain or isolate | mutations | value
CCN1c2ncc(CCOc3ccc(C(=O)NNCC(=O)O)cc3C)cc2C(=O)N(C)c2cccnc21 | IIIB | RT-K103N Y181C | >2
CCN1c2ncc(CCOc3ccc(-c4c[n+]([O-])ccc4C)cc3C)cc2C(=O)N(C)c2cccnc21 | IIIB | RT-K103N Y181C | 1
Cc1occc1C(=S)Nc1ccc(Cl)c(C(=O)OCC2CC2)c1 | - | RT-L100I | >8.33
CCN1c2ncc(CCOc3ccc(C(=O)O)c4ccccc34)cc2C(=O)Nc2c(C)cc(F)nc21 | - | RT-K103N Y181C | 1–10
CCN1c2ncc(CCOc3cccc4c3ccc[n+]4[O-])cc2C(=O)Nc2c(C)cc(Cl)nc21 | RT -K103N | RT-K103N | 2.2
C=CCO/N=C/c1cc(NC(=S)c2ccoc2C)ccc1Cl | - | RT-L100I | >8.33
NC(=O)c1[nH]c2ccc(Cl)cc2c1S(=O)(=O)c1ccccc1 | - | RT-Y181I | 140

Fold resistance has wild type as its base. Conditions beyond the fields shown may differ between rows. An empty or dashed field is not shown.